{"source": "patent US20130190228A1"}
{"target": "hemagglutinin (HA) of A/PuertoRico/8/34 (PR/8, H1N1) influenza virus (influenza A virus A/PuertoRico/8/34 (H1N1)), P03452", "assay": "cell-based or functional assay", "units": {"% inhibition of hemagglutination (10 µM peptide, 64 HAU PR/8, vs mock)": "%", "EC50 of hemagglutination inhibition (PR/8, 64 HAU)": "nM", "% inhibition of hemagglutination (10 µM peptide, PR/8; 10 µM EB = 100%)": "%", "EC50 of hemagglutination inhibition (PR/8)": "nM"}}
{"binder": "RRKKAALLVLAALAVLA (modifications not checked)", "note": "[SEQ. ID. NO: 30]", "% inhibition of hemagglutination (10 µM peptide, 64 HAU PR/8, vs mock)": 0}
{"binder": "RRKKAAVALLPAVLLAL (modifications not checked)", "note": "[SEQ. ID. NO: 4]", "% inhibition of hemagglutination (10 µM peptide, 64 HAU PR/8, vs mock)": 89, "EC50 of hemagglutination inhibition (PR/8, 64 HAU)": 3800}
{"binder": "RRKKAAVALLPAVLLALL (modifications not checked)", "note": "[SEQ. ID. NO: 3]", "% inhibition of hemagglutination (10 µM peptide, 64 HAU PR/8, vs mock)": 95, "EC50 of hemagglutination inhibition (PR/8, 64 HAU)": 600}
{"binder": "RRKKLAVLLAAAA (modifications not checked)", "note": "[SEQ ID NO: 56]", "% inhibition of hemagglutination (10 µM peptide, PR/8; 10 µM EB = 100%)": 0}
{"binder": "RRKKAAVAL (modifications not checked)", "note": "[SEQ. ID. NO: 12]", "% inhibition of hemagglutination (10 µM peptide, 64 HAU PR/8, vs mock)": 0}
{"binder": "RRKKLPAVLLALLAP (modifications not checked)", "note": "[SEQ. ID. NO: 22]", "% inhibition of hemagglutination (10 µM peptide, 64 HAU PR/8, vs mock)": 94, "% inhibition of hemagglutination (10 µM peptide, PR/8; 10 µM EB = 100%)": 100, "EC50 of hemagglutination inhibition (PR/8, 64 HAU)": 900}
{"binder": "RRKKLAALPLVLAAPLAVLA (modifications not checked)", "note": "[EBX peptide (scrambled EB control)]", "% inhibition of hemagglutination (10 µM peptide, 64 HAU PR/8, vs mock)": 0, "% inhibition of hemagglutination (10 µM peptide, PR/8; 10 µM EB = 100%)": 0}
{"binder": "RRKKAA (modifications not checked)", "note": "[SEQ. ID. NO: 15]", "% inhibition of hemagglutination (10 µM peptide, 64 HAU PR/8, vs mock)": 0}
{"binder": "RRKKLAVAAALLA (modifications not checked)", "note": "[SEQ ID NO: 55]", "% inhibition of hemagglutination (10 µM peptide, PR/8; 10 µM EB = 100%)": 0}
{"binder": "RRKKP (modifications not checked)", "note": "[SEQ. ID. NO: 29]", "% inhibition of hemagglutination (10 µM peptide, 64 HAU PR/8, vs mock)": 0}
{"binder": "RRKKAAVALLPAVLLA (modifications not checked)", "note": "[SEQ. ID. NO: 5]", "% inhibition of hemagglutination (10 µM peptide, 64 HAU PR/8, vs mock)": 96, "EC50 of hemagglutination inhibition (PR/8, 64 HAU)": 2800}
{"binder": "RRKKAAAAAAAAA (modifications not checked)", "note": "[SEQ ID NO: 49]", "% inhibition of hemagglutination (10 µM peptide, PR/8; 10 µM EB = 100%)": 87.5}
{"binder": "RRKKVLLALLAP (modifications not checked)", "note": "[SEQ. ID. NO: 23]", "% inhibition of hemagglutination (10 µM peptide, 64 HAU PR/8, vs mock)": 90, "EC50 of hemagglutination inhibition (PR/8, 64 HAU)": 4000}
{"binder": "RRKKAAVALLPAVL (modifications not checked)", "note": "[SEQ. ID. NO: 7]", "% inhibition of hemagglutination (10 µM peptide, 64 HAU PR/8, vs mock)": 0}
{"binder": "RRKKAAVALLPAV (modifications not checked)", "note": "[SEQ. ID. NO: 8]", "% inhibition of hemagglutination (10 µM peptide, 64 HAU PR/8, vs mock)": 0}
{"binder": "RRKKAAV (modifications not checked)", "note": "[SEQ. ID. NO: 14]", "% inhibition of hemagglutination (10 µM peptide, 64 HAU PR/8, vs mock)": 0}
{"binder": "RRKKAAVALLPAVLL (modifications not checked)", "note": "[SEQ. ID. NO: 6]", "% inhibition of hemagglutination (10 µM peptide, 64 HAU PR/8, vs mock)": 0}
{"binder": "RRKKAAVALL (modifications not checked)", "note": "[SEQ. ID. NO: 11]", "% inhibition of hemagglutination (10 µM peptide, 64 HAU PR/8, vs mock)": 0}
{"binder": "RRKKAP (modifications not checked)", "note": "[SEQ. ID. NO: 28]", "% inhibition of hemagglutination (10 µM peptide, 64 HAU PR/8, vs mock)": 0}
{"binder": "RRKKVALLPAVLLALLAP (modifications not checked)", "note": "[SEQ. ID. NO: 19]", "% inhibition of hemagglutination (10 µM peptide, 64 HAU PR/8, vs mock)": 94, "EC50 of hemagglutination inhibition (PR/8, 64 HAU)": 500}
{"binder": "RRKK (modifications not checked)", "note": "[SEQ. ID. NO: 17]", "% inhibition of hemagglutination (10 µM peptide, 64 HAU PR/8, vs mock)": 0}
{"binder": "RKKLAVLLALLA (modifications not checked)", "note": "[SEQ ID NO: 50]", "% inhibition of hemagglutination (10 µM peptide, PR/8; 10 µM EB = 100%)": 75, "EC50 of hemagglutination inhibition (PR/8)": 8000}
{"binder": "RRKKAAVALLAVLLALLA (modifications not checked)", "note": "[SEQ. ID. NO: 43]", "% inhibition of hemagglutination (10 µM peptide, 64 HAU PR/8, vs mock)": 95, "EC50 of hemagglutination inhibition (PR/8, 64 HAU)": 1600}
{"binder": "EEDDLAVLLALLA (modifications not checked)", "note": "[SEQ ID NO: 54]", "% inhibition of hemagglutination (10 µM peptide, PR/8; 10 µM EB = 100%)": 0}
{"binder": "RRKKAAVALLPAVLLALLA (modifications not checked)", "note": "[SEQ. ID. NO: 2]", "% inhibition of hemagglutination (10 µM peptide, 64 HAU PR/8, vs mock)": 94, "EC50 of hemagglutination inhibition (PR/8, 64 HAU)": 500}
{"binder": "RRKKVALLAVLLALLA (modifications not checked)", "note": "[SEQ. ID. NO: 32]", "EC50 of hemagglutination inhibition (PR/8, 64 HAU)": 500}
{"binder": "KLAVLLALLA (modifications not checked)", "note": "[SEQ ID NO: 52]", "% inhibition of hemagglutination (10 µM peptide, PR/8; 10 µM EB = 100%)": 25}
{"binder": "KKLAVLLALLA (modifications not checked)", "note": "[SEQ ID NO: 53]", "% inhibition of hemagglutination (10 µM peptide, PR/8; 10 µM EB = 100%)": 0}
{"binder": "RKAVLLALLA (modifications not checked)", "note": "[SEQ ID NO: 51]", "% inhibition of hemagglutination (10 µM peptide, PR/8; 10 µM EB = 100%)": 50}
{"binder": "RRKKLAP (modifications not checked)", "note": "[SEQ. ID. NO: 27]", "% inhibition of hemagglutination (10 µM peptide, 64 HAU PR/8, vs mock)": 0}
{"binder": "RRKKLLALLAP (modifications not checked)", "note": "[SEQ. ID. NO: 24]", "% inhibition of hemagglutination (10 µM peptide, 64 HAU PR/8, vs mock)": 0}
{"binder": "RRKKAAVA (modifications not checked)", "note": "[SEQ. ID. NO: 13]", "% inhibition of hemagglutination (10 µM peptide, 64 HAU PR/8, vs mock)": 0}
{"binder": "RRKKALLPAVLLALLAP (modifications not checked)", "note": "[SEQ. ID. NO: 20]", "% inhibition of hemagglutination (10 µM peptide, 64 HAU PR/8, vs mock)": 94, "EC50 of hemagglutination inhibition (PR/8, 64 HAU)": 700}
{"binder": "RRKKAVALLPAVLLALLAP (modifications not checked)", "note": "[SEQ. ID. NO: 18]", "% inhibition of hemagglutination (10 µM peptide, 64 HAU PR/8, vs mock)": 94, "EC50 of hemagglutination inhibition (PR/8, 64 HAU)": 800}
{"binder": "RRKKLLAVLLALLA (modifications not checked)", "note": "[SEQ ID NO: 44]", "% inhibition of hemagglutination (10 µM peptide, 64 HAU PR/8, vs mock)": 95, "EC50 of hemagglutination inhibition (PR/8, 64 HAU)": 3000}
{"binder": "RRKKAAVALLPAVLLALLAP (modifications not checked)", "note": "[EB peptide (entry blocker)]", "% inhibition of hemagglutination (10 µM peptide, PR/8; 10 µM EB = 100%)": 100}
{"binder": "RRKKLLPAVLLALLAP (modifications not checked)", "note": "[SEQ. ID. NO: 21]", "% inhibition of hemagglutination (10 µM peptide, 64 HAU PR/8, vs mock)": 94, "EC50 of hemagglutination inhibition (PR/8, 64 HAU)": 800}
{"binder": "RRKKA (modifications not checked)", "note": "[SEQ. ID. NO: 16]", "% inhibition of hemagglutination (10 µM peptide, 64 HAU PR/8, vs mock)": 0}
{"binder": "RRKKAAVALLP (modifications not checked)", "note": "[SEQ. ID. NO: 10]", "% inhibition of hemagglutination (10 µM peptide, 64 HAU PR/8, vs mock)": 4}
{"binder": "RRKKLLAP (modifications not checked)", "note": "[SEQ. ID. NO: 26]", "% inhibition of hemagglutination (10 µM peptide, 64 HAU PR/8, vs mock)": 0}
{"binder": "RRKKAAVALLPA (modifications not checked)", "note": "[SEQ. ID. NO: 9]", "% inhibition of hemagglutination (10 µM peptide, 64 HAU PR/8, vs mock)": 0}
{"binder": "RRKKLAVLLALLA (modifications not checked)", "note": "[SEQ. ID. NO: 45]", "% inhibition of hemagglutination (10 µM peptide, 64 HAU PR/8, vs mock)": 94, "% inhibition of hemagglutination (10 µM peptide, PR/8; 10 µM EB = 100%)": 100, "EC50 of hemagglutination inhibition (PR/8)": 3000, "EC50 of hemagglutination inhibition (PR/8, 64 HAU)": 3000}
{"binder": "RRKKALLAP (modifications not checked)", "note": "[SEQ. ID. NO: 25]", "% inhibition of hemagglutination (10 µM peptide, 64 HAU PR/8, vs mock)": 0}
